From ChEMBL document CHEMBL4376895, “Structure and Activity Studies of Disulfide-Deficient Analogues of αO-Conotoxin GeXIVA” (J Med Chem, 2020) come the findings set out here.

By UniProt entry, the sequences of proteins in these tests, tags left out. Residues count along the entry.
UniProt P36544, 23-502 limits assumed: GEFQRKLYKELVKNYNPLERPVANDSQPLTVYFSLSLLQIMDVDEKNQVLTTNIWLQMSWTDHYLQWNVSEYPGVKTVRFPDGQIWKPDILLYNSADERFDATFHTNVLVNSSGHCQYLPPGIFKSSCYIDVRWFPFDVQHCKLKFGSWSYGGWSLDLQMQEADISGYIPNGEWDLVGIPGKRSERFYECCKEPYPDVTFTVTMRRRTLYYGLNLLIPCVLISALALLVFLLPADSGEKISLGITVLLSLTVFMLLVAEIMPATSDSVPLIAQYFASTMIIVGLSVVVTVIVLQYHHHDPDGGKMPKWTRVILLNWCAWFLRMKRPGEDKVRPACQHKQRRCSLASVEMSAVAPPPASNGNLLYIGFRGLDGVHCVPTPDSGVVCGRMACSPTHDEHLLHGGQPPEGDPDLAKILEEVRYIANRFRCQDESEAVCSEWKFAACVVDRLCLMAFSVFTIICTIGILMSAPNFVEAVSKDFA
UniProt Q9JLB5, 25-447 limits assumed: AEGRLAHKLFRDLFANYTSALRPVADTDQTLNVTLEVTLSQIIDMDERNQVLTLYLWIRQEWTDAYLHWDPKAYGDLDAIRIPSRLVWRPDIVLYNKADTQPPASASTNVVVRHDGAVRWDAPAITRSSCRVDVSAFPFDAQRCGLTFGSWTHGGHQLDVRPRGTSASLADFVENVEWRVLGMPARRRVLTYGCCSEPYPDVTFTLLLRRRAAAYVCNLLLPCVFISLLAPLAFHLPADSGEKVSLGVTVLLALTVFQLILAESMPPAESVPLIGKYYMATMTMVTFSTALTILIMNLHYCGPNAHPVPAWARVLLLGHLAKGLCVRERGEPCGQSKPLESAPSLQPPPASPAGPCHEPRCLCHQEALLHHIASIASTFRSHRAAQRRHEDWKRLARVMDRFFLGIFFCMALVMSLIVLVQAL
UniProt Q05941, 23-502 limits assumed: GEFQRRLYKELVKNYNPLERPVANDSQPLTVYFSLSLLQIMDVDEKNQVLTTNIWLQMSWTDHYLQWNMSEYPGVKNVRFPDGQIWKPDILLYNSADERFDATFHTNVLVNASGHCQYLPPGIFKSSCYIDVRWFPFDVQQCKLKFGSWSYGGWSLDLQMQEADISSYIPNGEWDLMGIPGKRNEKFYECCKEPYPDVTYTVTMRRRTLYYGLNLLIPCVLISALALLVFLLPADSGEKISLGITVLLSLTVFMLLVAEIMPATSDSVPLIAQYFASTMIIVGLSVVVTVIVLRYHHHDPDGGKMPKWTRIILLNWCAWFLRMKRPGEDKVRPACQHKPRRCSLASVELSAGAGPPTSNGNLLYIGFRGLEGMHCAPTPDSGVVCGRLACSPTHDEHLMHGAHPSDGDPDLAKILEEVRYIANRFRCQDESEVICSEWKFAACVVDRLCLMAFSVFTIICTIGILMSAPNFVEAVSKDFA
UniProt P04757, 26-499 limits assumed: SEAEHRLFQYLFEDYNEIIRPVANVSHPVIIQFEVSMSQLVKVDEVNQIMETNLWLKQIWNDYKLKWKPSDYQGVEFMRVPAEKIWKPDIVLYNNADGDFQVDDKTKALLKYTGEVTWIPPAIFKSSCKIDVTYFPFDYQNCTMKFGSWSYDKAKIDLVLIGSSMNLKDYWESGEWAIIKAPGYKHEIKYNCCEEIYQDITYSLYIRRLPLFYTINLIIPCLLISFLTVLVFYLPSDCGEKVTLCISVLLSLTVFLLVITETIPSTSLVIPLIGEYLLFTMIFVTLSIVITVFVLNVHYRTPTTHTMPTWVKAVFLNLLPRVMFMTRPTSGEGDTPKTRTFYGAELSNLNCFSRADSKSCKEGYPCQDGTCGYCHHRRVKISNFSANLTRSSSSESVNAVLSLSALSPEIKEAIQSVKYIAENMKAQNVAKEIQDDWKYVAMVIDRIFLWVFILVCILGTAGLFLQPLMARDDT
UniProt P12390, 25-500 limits assumed: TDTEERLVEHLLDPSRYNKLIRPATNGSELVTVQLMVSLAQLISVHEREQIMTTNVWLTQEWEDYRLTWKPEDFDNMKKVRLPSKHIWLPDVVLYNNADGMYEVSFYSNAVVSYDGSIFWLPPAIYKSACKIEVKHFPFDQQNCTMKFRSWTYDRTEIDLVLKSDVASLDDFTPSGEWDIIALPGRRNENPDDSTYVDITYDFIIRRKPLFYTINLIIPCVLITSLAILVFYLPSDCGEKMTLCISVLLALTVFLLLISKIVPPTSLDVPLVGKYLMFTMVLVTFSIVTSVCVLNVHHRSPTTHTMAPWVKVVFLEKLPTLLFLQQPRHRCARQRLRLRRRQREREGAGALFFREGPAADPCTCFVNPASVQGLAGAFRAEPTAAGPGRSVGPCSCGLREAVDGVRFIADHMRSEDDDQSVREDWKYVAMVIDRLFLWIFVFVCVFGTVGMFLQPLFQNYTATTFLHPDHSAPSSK
UniProt P12392, 21-495 limits assumed: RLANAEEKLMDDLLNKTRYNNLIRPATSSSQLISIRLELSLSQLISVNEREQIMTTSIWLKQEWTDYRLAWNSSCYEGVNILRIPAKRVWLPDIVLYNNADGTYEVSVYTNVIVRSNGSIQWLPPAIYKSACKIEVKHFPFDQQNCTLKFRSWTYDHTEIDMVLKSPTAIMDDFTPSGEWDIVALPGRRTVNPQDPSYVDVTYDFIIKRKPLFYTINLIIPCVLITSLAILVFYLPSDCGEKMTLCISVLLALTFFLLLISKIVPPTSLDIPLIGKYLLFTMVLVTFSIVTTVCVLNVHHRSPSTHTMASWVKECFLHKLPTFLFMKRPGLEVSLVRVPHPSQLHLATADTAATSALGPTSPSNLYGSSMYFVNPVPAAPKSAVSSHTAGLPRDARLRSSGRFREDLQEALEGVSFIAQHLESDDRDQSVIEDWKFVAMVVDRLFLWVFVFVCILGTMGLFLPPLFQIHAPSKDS
UniProt P12389, 28-511 limits assumed: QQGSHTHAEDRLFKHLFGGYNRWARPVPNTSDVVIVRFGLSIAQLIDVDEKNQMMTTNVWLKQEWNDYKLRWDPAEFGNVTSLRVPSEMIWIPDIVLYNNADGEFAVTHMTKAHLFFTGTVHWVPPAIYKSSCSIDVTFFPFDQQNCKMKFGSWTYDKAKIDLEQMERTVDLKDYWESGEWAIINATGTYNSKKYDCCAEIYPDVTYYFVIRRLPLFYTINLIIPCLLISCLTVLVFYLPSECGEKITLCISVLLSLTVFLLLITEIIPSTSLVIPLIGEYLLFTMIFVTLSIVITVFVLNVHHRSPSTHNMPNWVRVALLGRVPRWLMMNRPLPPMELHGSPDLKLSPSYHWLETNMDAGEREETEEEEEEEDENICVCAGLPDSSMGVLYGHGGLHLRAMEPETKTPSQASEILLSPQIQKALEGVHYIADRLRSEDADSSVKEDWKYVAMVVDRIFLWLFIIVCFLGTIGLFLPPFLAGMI
UniProt Q9UGM1, 23-479 limits assumed: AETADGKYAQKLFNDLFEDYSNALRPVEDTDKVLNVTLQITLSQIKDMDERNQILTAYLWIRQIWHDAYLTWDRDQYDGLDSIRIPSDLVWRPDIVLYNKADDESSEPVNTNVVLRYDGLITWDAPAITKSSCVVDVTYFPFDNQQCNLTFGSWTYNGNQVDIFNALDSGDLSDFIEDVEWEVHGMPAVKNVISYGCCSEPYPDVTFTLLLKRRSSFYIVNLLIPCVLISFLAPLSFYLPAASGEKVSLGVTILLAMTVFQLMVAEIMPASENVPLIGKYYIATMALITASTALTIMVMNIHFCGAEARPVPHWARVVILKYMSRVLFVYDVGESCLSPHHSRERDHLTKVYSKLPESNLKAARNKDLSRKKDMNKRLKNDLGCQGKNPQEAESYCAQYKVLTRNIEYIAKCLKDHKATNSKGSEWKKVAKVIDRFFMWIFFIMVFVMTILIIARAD
UniProt Q9GZZ6, 25-450 limits assumed: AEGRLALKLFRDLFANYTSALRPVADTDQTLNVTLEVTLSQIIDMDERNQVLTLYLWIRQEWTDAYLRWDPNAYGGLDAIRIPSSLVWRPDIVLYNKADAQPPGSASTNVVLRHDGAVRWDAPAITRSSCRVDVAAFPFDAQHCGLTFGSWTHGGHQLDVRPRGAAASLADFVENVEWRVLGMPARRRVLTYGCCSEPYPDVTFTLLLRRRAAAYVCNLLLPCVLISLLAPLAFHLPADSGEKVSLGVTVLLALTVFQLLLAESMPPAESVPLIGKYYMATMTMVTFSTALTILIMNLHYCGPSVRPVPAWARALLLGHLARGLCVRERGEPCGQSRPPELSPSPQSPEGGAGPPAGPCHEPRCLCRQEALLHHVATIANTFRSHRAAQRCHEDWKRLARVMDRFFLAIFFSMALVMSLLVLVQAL
UniProt Q9NY46, whole entry, looked up: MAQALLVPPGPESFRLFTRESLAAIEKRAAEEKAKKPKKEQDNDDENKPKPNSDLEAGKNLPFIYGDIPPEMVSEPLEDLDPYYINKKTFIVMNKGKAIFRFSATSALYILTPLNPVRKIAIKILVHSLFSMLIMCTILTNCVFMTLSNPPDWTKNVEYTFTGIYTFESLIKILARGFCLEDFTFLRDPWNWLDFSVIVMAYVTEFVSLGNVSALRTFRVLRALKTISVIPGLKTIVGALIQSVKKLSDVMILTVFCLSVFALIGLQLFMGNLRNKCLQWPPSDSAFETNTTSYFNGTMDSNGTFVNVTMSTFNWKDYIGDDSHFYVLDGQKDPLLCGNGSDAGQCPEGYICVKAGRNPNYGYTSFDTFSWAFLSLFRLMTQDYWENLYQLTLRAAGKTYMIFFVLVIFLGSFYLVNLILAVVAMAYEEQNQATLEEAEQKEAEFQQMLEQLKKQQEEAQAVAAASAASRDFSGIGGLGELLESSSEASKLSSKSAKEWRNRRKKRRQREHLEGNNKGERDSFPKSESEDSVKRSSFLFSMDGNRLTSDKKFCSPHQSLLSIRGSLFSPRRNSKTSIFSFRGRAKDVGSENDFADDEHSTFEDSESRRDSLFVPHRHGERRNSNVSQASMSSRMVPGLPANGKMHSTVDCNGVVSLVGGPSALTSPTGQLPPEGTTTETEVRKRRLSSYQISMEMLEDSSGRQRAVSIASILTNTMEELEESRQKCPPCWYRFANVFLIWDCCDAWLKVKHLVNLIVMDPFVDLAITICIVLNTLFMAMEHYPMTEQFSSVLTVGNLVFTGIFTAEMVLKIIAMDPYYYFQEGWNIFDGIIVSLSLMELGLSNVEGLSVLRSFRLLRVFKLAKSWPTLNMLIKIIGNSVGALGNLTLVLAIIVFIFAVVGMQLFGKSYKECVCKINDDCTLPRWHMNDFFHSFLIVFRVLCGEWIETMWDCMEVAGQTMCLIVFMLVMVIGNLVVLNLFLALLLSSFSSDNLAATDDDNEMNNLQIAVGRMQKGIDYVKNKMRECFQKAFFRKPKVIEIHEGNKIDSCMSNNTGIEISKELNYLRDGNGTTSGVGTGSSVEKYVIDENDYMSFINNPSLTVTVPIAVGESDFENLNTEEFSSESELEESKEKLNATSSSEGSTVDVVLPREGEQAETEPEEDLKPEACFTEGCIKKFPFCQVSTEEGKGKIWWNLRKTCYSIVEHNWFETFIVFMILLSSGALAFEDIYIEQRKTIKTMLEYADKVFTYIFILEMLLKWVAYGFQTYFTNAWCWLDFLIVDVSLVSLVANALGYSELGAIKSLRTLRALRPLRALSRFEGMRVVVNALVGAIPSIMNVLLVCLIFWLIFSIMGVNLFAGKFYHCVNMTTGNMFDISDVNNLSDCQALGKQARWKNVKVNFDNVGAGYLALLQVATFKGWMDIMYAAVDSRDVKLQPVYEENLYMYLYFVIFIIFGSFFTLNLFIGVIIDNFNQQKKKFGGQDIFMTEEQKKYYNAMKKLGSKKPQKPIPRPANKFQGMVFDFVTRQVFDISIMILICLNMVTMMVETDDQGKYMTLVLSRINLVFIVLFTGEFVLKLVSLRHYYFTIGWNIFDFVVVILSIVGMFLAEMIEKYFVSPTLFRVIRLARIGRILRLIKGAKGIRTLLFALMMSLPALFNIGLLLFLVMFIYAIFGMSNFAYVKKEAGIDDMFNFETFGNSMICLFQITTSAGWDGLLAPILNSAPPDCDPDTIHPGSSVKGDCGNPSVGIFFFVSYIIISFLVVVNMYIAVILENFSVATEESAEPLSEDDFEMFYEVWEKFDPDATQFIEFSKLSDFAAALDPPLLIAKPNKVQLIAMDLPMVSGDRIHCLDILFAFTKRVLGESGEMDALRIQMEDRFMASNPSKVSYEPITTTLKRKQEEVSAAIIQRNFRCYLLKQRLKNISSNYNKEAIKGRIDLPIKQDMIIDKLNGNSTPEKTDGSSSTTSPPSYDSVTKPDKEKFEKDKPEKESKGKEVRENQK

The target in assay [1] is Neuronal acetylcholine receptor subunit alpha-7 (Homo sapiens, UniProt P36544).
Assay [2] deals with Nicotinic acetylcholine receptor alpha9/alpha10 (Rattus norvegicus, UniProt P43144+Q9JLB5).
Assay [3] deals with Neuronal acetylcholine receptor subunit alpha-7 (Rattus norvegicus, UniProt Q05941).
Assay [4] addresses Neuronal acetylcholine receptor; alpha3/beta2 (Rattus norvegicus, UniProt P04757+P12390).
The target of assay [5] is Neuronal acetylcholine receptor; alpha3/beta4 (Rattus norvegicus, UniProt P04757+P12392).
Assay [6] deals with Neuronal acetylcholine receptor; alpha2/beta2 (Rattus norvegicus, UniProt P12389+P12390).
Assay [7] addresses Neuronal acetylcholine receptor; alpha9/alpha10 (Homo sapiens, UniProt Q9UGM1+Q9GZZ6).
The target in assay [8] is Sodium channel protein type 3 subunit alpha (Homo sapiens, UniProt Q9NY46).

Molecules are shown by their SMILES.

Regarding `C[C@@H]1NC(=O)[C@@H]2CSSC[C@H](NC(=O)CN)C(=O)N[C@@H](CSSC[C@@H](C(N)=O)NC(=O)[C@H](CCCNC(=N)N)NC(=O)[C@H](Cc3c[nH]c4ccccc34)NC1=O)C(=O)N[C@@H](CO)C(=O)N[C@@H](CC(=O)O)C(=O)N1CCC[C@H]1C(=O)N[C@@H](CCCNC(=N)N)C(=O)N2`, the half-inhibitory concentration (IC50) – broadly, the midpoint of a concentration-inhibition curve – in assay [1] worked out at 0.497 µM.
As for `CC[C@H](C)[C@H](NC(=O)[C@H](CCCNC(=N)N)NC(=O)[C@H](CCCNC(=N)N)NC(=O)[C@H](CO)NC(=O)[C@H](Cc1ccc(O)cc1)NC(=O)[C@H](CCCNC(=N)N)NC(=O)[C@H](CCCNC(=N)N)NC(=O)[C@H](CCCNC(=N)N)NC(=O)[C@H](CCCNC(=N)N)NC(=O)[C@H](CC(=O)O)NC(=O)[C@H](Cc1ccc(O)cc1)NC(=O)[C@@H]1CCCN1C(=O)[C@H](CO)NC(=O)[C@H](CCCNC(=N)N)NC(=O)[C@H](C)NC(=O)[C@H](Cc1ccc(O)cc1)NC(=O)[C@H](CCCNC(=N)N)NC(=O)CNC(=O)[C@H](CO)NC(=O)[C@H](CO)NC(=O)[C@H](CCCNC(=N)N)NC(=O)[C@H](C)NC(=O)[C@@H](N)[C@@H](C)O)C(=O)N[C@H](C(=O)N[C@@H](CC(=O)O)C(=O)N[C@@H](C)C(=O)N[C@@H](CO)C(=O)N[C@H](C(=O)O)C(C)C)[C@@H](C)O`, the IC50 in assay [2] was found to be 0.0061 µM; in assay [3], 1.27 µM; in assay [4] it was 2.83 µM; in assay [5], 8.35 µM; in assay [6], 4.36 µM; in assay [7], 0.033 µM.
In turn, `CC(C)[C@H](N)C(=O)NCC(=O)N[C@@H](CCC(=O)O)C(=O)N[C@@H](CCCNC(=N)N)C(=O)N[C@@H](C)C(=O)N[C@H]1CSSC[C@@H]2NC(=O)[C@H](CCCNC(=N)N)NC(=O)[C@H](CO)NC(=O)[C@H](Cc3cnc[nH]3)NC(=O)[C@H](CC(=O)O)NC(=O)[C@H](CCCNC(=N)N)NC(=O)[C@H](C)NC(=O)[C@H](Cc3c[nH]c4ccccc34)NC(=O)[C@H](CCCNC(=N)N)NC(=O)CNC(=O)[C@H](CSSC[C@@H](C(N)=O)NC2=O)NC(=O)CNC(=O)[C@H](CCCNC(=N)N)NC(=O)[C@H](CCCCN)NC(=O)CNC(=O)[C@H](CC(N)=O)NC(=O)[C@H](CCCCN)NC1=O` registered a half-maximal inhibitory concentration (IC50) in assay [8] of 15.7 µM. This counts as double-digit micromolar.
As to `CC(C)[C@H](N)C(=O)NCC(=O)N[C@@H](CCC(=O)O)C(=O)N[C@@H](CCCNC(=N)N)C(=O)N[C@H]1CSSC[C@@H]2NC(=O)[C@H](Cc3c[nH]c4ccccc34)NC(=O)[C@H](CCCNC(=N)N)NC(=O)CNC(=O)[C@H](CSSC[C@@H](C(N)=O)NC(=O)[C@H](C)NC(=O)[C@H](CCCNC(=N)N)NC(=O)[C@H](CO)NC(=O)[C@H](Cc3cnc[nH]3)NC(=O)[C@H](CC(=O)O)NC(=O)[C@H](CCCNC(=N)N)NC2=O)NC(=O)CNC(=O)[C@H](CCCNC(=N)N)NC(=O)[C@H](CCCCN)NC(=O)CNC(=O)[C@H](CC(N)=O)NC(=O)[C@H](CCCCN)NC(=O)[C@H](C)NC1=O`, inhibition in assay [8] was half-maximal at 0.26 µM (IC50).
Still for that read-out and setting: to `CC(C)[C@H](N)C(=O)NCC(=O)N[C@@H](CCC(=O)O)C(=O)N[C@@H](CCCNC(=N)N)C(=O)N[C@H]1CSSC[C@@H]2NC(=O)[C@H](Cc3c[nH]c4ccccc34)NC(=O)[C@H](CCCNC(=N)N)NC(=O)CNC(=O)[C@@H]3CSSC[C@@H](C(N)=O)NC(=O)[C@H](CSSC[C@H](NC1=O)C(=O)N[C@@H](CCCCN)C(=O)N[C@@H](CC(N)=O)C(=O)NCC(=O)N[C@@H](CCCCN)C(=O)N[C@@H](CCCNC(=N)N)C(=O)NCC(=O)N3)NC(=O)[C@H](CCCNC(=N)N)NC(=O)[C@H](CO)NC(=O)[C@H](Cc1cnc[nH]1)NC(=O)[C@H](CC(=O)O)NC(=O)[C@H](CCCNC(=N)N)NC2=O` belongs 0.2 µM.
Turning to `CC[C@H](C)[C@@H]1NC(=O)[C@H](CCCNC(=N)N)NC(=O)[C@H](CCCNC(=N)N)NC(=O)[C@H](C)NC(=O)[C@H](Cc2ccc(O)cc2)NC(=O)[C@H](CCCNC(=N)N)NC(=O)[C@H](CCCNC(=N)N)NC(=O)[C@H](CCCNC(=N)N)NC(=O)[C@H](CCCNC(=N)N)NC(=O)[C@H](CC(=O)O)NC(=O)[C@H](Cc2ccc(O)cc2)NC(=O)[C@@H]2CCCN2C(=O)[C@H](CO)NC(=O)[C@H](CCCNC(=N)N)NC(=O)[C@H](C)NC(=O)[C@H](Cc2ccc(O)cc2)NC(=O)[C@H](CCCNC(=N)N)NC(=O)CNC(=O)[C@H](CO)NC(=O)[C@H](CO)NC(=O)[C@H](CCCNC(=N)N)NC(=O)[C@@H](NC(=O)[C@@H](N)[C@@H](C)O)CSSC[C@@H](C(=O)N[C@H](C(=O)O)C(C)C)NC(=O)[C@H](C)NC(=O)[C@H](CC(=O)O)NC(=O)[C@H]([C@@H](C)O)NC1=O`, the IC50 came to 0.036 µM in assay [2]; 3.36 µM in assay [3]; 1.05 µM in assay [4]; 4.75 µM in assay [5]; 3.98 µM in assay [6].
The compound `CC(C)[C@H](N)C(=O)NCC(=O)N[C@@H](CCC(=O)O)C(=O)N[C@@H](CCCNC(=N)N)C(=O)N[C@H]1CSSC[C@@H]2NC(=O)[C@H](Cc3c[nH]c4ccccc34)NC(=O)[C@H](CCCNC(=N)N)NC(=O)CNC(=O)[C@H](C)NC(=O)CNC(=O)[C@H](CCCNC(=N)N)NC(=O)[C@H](CCCCN)NC(=O)CNC(=O)[C@H](CC(N)=O)NC(=O)[C@H](CCCCN)NC(=O)[C@H](CSSC[C@@H](C(=O)N[C@@H](C)C(N)=O)NC(=O)[C@H](CCCNC(=N)N)NC(=O)[C@H](CO)NC(=O)[C@H](Cc3cnc[nH]3)NC(=O)[C@H](CC(=O)O)NC(=O)[C@H](CCCNC(=N)N)NC2=O)NC1=O` came in with an IC50 in assay [8] of 0.11 µM.
As for `CC[C@H](C)[C@H](NC(=O)[C@H](CCCNC(=N)N)NC(=O)[C@H](CCCNC(=N)N)NC(=O)[C@H](C)NC(=O)[C@H](Cc1ccc(O)cc1)NC(=O)[C@H](CCCNC(=N)N)NC(=O)[C@H](CCCNC(=N)N)NC(=O)[C@H](CCCNC(=N)N)NC(=O)[C@H](CCCNC(=N)N)NC(=O)[C@H](CC(=O)O)NC(=O)[C@H](Cc1ccc(O)cc1)NC(=O)[C@@H]1CCCN1C(=O)[C@H](CO)NC(=O)[C@H](CCCNC(=N)N)NC(=O)[C@H](C)NC(=O)[C@H](Cc1ccc(O)cc1)NC(=O)[C@H](CCCNC(=N)N)NC(=O)CNC(=O)[C@H](CO)NC(=O)[C@H](CO)NC(=O)[C@H](CCCNC(=N)N)NC(=O)[C@H](C)NC(=O)[C@@H](N)[C@@H](C)O)C(=O)N[C@H](C(=O)N[C@@H](CC(=O)O)C(=O)N[C@@H](C)C(=O)N[C@@H](C)C(=O)N[C@H](C(=O)O)C(C)C)[C@@H](C)O`, the concentration for half-maximal inhibition (IC50) in assay [2] turned out to be 0.014 µM; in assay [3], 3.56 µM; in assay [4], 3.57 µM; in assay [5], 8.99 µM; in assay [6] it was 7.51 µM.
